Source: PubChem BioAssay AID1085 (Emory University Molecular Libraries Screening Center, 2008)
The list shows a part of the results, in another mix than the full data. Active and inactive are the calls of the source. Cut-off read from the data, not from the text of the source: active = inhibition above about 50%; inactive = the rest.

Protein sequences, listed by entry. Tags and fused reporters are not part of them. Lines headed by an entry give the natural chain unless they say otherwise; changes in a name come on top.
UniProt Q1HVG2: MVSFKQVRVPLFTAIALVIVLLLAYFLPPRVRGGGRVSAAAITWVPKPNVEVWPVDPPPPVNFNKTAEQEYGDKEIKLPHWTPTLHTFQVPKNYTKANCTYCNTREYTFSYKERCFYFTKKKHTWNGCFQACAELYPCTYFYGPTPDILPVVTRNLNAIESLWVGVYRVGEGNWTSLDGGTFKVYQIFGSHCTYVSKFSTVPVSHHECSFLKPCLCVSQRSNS

What follows are molecules tested against Glycoprotein 42 (Epstein-Barr virus (strain AG876)) (UniProt Q1HVG2) (assay: Epstein-Barr virus gp42 inhibitors, primary screen, biochemical, uHTS, fluorescence polarization (AID 1085)). Settings: Fluorescence polarization binding assay, mP read-out; hits give high values; tested at 21.74 µM.
For O=c1c2cc([N+](=O)[O-])ccc2[nH]c2c([N+](=O)[O-])cc([N+](=O)[O-])cc12, the inhibition was inactive: -2.38%. With CN(C)C(=O)Oc1noc2ccccc12 the inhibition was inactive: -5.71%. With CC(=O)NC(SC(=S)N(CC(C)C)CC(C)C)C(Cl)(Cl)Cl (centres undefined) the inhibition was inactive: 1.35%. Cc1ccc(OP(=O)(Nc2ccccn2)Oc2ccc(C)cc2)cc1 was tested, and the inhibition was inactive: -16.6%. In the case of CCC(=O)N1C2C3N(C(=O)CC)C1C1N(C(=O)CC)C(C(N1C(=O)CC)N3C(=O)CC)N2C(=O)CC, the inhibition is reported as inactive: -15.9%. In the case of CC(C)(C)C(=O)NC(Sc1ccccc1)C(Cl)(Cl)Cl (centres undefined), the inhibition is reported as inactive: -9.38%. With O=P1(Nc2nc3ccc(Cl)cc3s2)COc2ccccc2O1 (centres undefined) the inhibition was inactive: -20%. CCOc1ccc(C2=NCC(CBr)S2)cc1 (centres undefined) was tested, and the inhibition was inactive: -9.69%. In the case of CC(=O)Nc1ccc([As](=O)(O)O)c(O)c1, the inhibition is reported as inactive: -4.61%. CC(=O)Nc1ccc(Oc2c([N+](=O)[O-])cc([N+](=O)[O-])cc2[N+](=O)[O-])cc1 was tested, and the inhibition was inactive: 5.01%. For C[C@H]1OP(=O)(Oc2ccccc2)C[C@@H]2O[C@@H]21 (some centres undefined), the inhibition was inactive: -18.8%. With C[C@@H]1C=CCP(=O)(Oc2ccccc2)O1 (some centres undefined) the inhibition was inactive: -11.7%. In the case of c1nnnn1CCn1cnnn1, the inhibition is reported as inactive: -3.23%. For CC(C)C(=O)NC(Sc1ccccc1)C(Cl)(Cl)Cl (centres undefined), the inhibition was inactive: 6.82%. In the case of O=P(Nc1nccs1)(c1ccccc1)c1ccccc1, the inhibition is reported as inactive: -2.68%. For O=P(Nc1nc2ccccc2s1)(c1ccccc1)c1ccccc1, the inhibition was inactive: -12.5%. With C[C@H]1OP(=O)(Oc2ccccc2)[C@H](O)[C@H](O)[C@H]1N=[N+]=[N-] (some centres undefined) the inhibition was inactive: -9.22%. In the case of O=P(Nc1ccccn1)(c1ccc(Br)cc1)c1ccc(Br)cc1, the inhibition is reported as inactive: 11.3%. With C(Cc1nn[nH]n1)Cc1nn[nH]n1 the inhibition was inactive: -13.5%. Nc1ccc([As](=O)(O)c2ccc([N+](=O)[O-])cc2)cc1 was tested, and the inhibition was inactive: -12.8%. With O=C(OC1CN2CCC1CC2)c1cccc(Cl)c1 (centres undefined) the inhibition was inactive: -11.4%. In the case of CC(=O)NC(SC(=S)N(C)C)C(Cl)(Cl)Cl (centres undefined), the inhibition is reported as inactive: -7.09%. O=[N+]([O-])c1ncn(CCn2cnc([N+](=O)[O-])n2)n1 was tested, and the inhibition was inactive: -1.28%. In the case of O=[As](O)(c1ccccc1)c1ccc(O)cc1, the inhibition is reported as inactive: 1.74%.
